Compound potency records, mixed from different reports. Data source: NIAID ChemDB in PubChem.

All rows: tests in culture

Percent inhibition refers to the dose given; in toxicity tests it is the harm to the cells. ECn is the concentration giving n% inhibition of infection, replication or growth. An empty or dashed field is not shown. Fold resistance has wild type as its base. Zone: diameter of growth inhibition. A number after MIC or MFC names an inhibition level or a share of isolates. Neighbouring rows are from separate reports.

smiles	agent	strain or isolate	changes	cell line	read by	measure	dose	value
CC(C)(CO)C(=O)SCCOP(=O)(NCc1ccccc1)OC[C@H]1O[C@@H](n2cnc3c(=O)[nH]c(N)nc32)[C@](C)(O)[C@@H]1O	Hepatitis C virus	GT1b	P32L	Replicon cells	replicon	fold resistance		0.66
CO[C@H]1[C@@H](OC(=O)/C=C/C=C/C=C/C=C/C(=O)O)CC[C@@]2(CO2)[C@@H]1[C@@]1(C)O[C@@H]1CC=C(C)C	Encephalitozoon cuniculi			MRC-5 fibroblasts	cytopathic effect	inhibition	5 µg/mL	100%
CC[C@H]1OC(=O)[C@H](C)[C@@H](O[C@H]2C[C@@](C)(OC)[C@@H](O)[C@H](C)O2)[C@H](C)[C@@H](O[C@@H]2O[C@H](C)C[C@H](N(C)C)[C@H]2O)[C@](C)(OC)C[C@@H](C)C(=O)[C@H](C)[C@@H](O)[C@]1(C)O	Staphylococcus aureus	20 strains (methicillin-susceptible)				MIC90		16 µg/mL
CCC(C)n1ncn(-c2ccc(N3CCN(c4ccc(OC[C@H]5CO[C@](Cn6cncn6)(c6ccc(Cl)cc6Cl)O5)cc4)CC3)cc2)c1=O	Candida albicans	Isogenic isolate 11 (25X)				MIC		0.03 µg/mL
CCCCNC(=O)n1c(NC(=O)OC)nc2ccccc21	Cryptococcus neoformans	IU8698				EC50		2.8 µg/mL
OC(Cn1cncn1)(Cn1cncn1)c1ccc(F)cc1F	Candida albicans	YL 358			broth dilution	MIC		>512 µg/mL
Nc1nccc2c1ncn2[C@@H]1C[C@H](CO)[C@@H](O)[C@H]1O	Vesicular stomatitis virus			BALB/3T3	cytopathic effect	EC50		300 µg/mL
CO[C@H]1/C=C/O[C@@]2(C)Oc3c(C)c(O)c4c(O)c(c5c(c4c3C2=O)NC2(CCN(CC(C)C)CC2)N=5)=NC(=O)/C(C)=C\C=C\[C@H](C)[C@H](O)[C@@H](C)[C@@H](O)[C@@H](C)[C@H](OC(C)=O)[C@@H]1C	Staphylococcus aureus	16 strains (methicillin- quinolone-resistant)				MIC90		2 µg/mL
NC[C@@H]1O[C@H](O[C@H]2[C@@H](O)[C@H](O[C@@H]3[C@@H](O)[C@H](N)C[C@H](N)[C@H]3O[C@H]3O[C@H](CO)[C@@H](O)[C@H](O)[C@H]3N)O[C@@H]2CO)[C@H](N)[C@@H](O)[C@@H]1O	Encephalitozoon cuniculi			MRC-5 fibroblasts	cytopathic effect	inhibition	1000 µg/mL	1%
COC(=O)Nc1nc2ccc(Sc3ccccc3)cc2[nH]1	Cryptococcus neoformans	10 isolates				EC50		<0.015 µg/mL
CCn1cc(C(=O)O)c(=O)c2cc(F)c(N3CCN(C)CC3)cc21	Encephalitozoon cuniculi			MRC-5 fibroblasts	cytopathic effect	inhibition	5 µg/mL	0%
Nc1ncnc2c1ncn2C[C@@H](CO)OCP(=O)(O)O	Adenovirus	TRIM (TYPE 8)			virus yield	EC90		8 µg/mL
C[C@@H](O)[C@H]1C(=O)N2C(C(=O)O)=C(SCCN=CN)C[C@H]12	Staphylococcus aureus	25 strains (ofloxacin-resistant)				MIC50		64 µg/mL
CCc1nc(N)nc(N)c1-c1ccc(Cl)cc1	Encephalitozoon cuniculi			MRC-5 fibroblasts	cytopathic effect	inhibition	50 µg/mL	35%
CC1(C)S[C@@H]2[C@H](NC(=O)[C@H](N)c3ccccc3)C(=O)N2[C@H]1C(=O)O	Haemophilus influenzae	38 strains (ampicillin-susceptible)				MIC90		1 µg/mL
Nc1cc(OC[C@H](CO)OCP(=O)(O)O)nc(N)n1	Reovirus	TYPE 1			cytopathic effect	EC50		>15 µM
CC1COc2c(N3CCN(C)CC3)c(F)cc3c(=O)c(C(=O)O)cn1c23	Enterococcus faecium	10 strains				MIC90		4 µg/mL
Nc1ccn(C[C@@H](CO)OCP(=O)(O)O)c(=O)n1	Mouse cytomegalovirus	HPMPC-resistant		C1271	plaque count	EC50		4.7 µM
Nc1nc2c(ncn2CCOCP(=O)(O)O)c(=O)[nH]1	Measles virus	Halonen			neutral red	EC50		<0.03 µg/mL
c1ccc2[nH]c(-c3cscn3)nc2c1	Cryptococcus neoformans	ATCC 14116				EC50		<4 µg/mL
COc1c(N2CCNC(C)C2)c(F)cc2c(=O)c(C(=O)O)cn(C3CC3)c12	Haemophilus influenzae	38 strains (ampicillin-susceptible)				MIC50		0.008 µg/mL
Cc1ccnc2c1NC(=O)c1cccnc1N2C1CC1	HIV-1	RTMC (RT-Y181C)	RT-D67N K70R Y181C T215Y K219Q	HT4 + HT4 LacZ-1	plaque count	EC50		5.6 µM
COc1cc(Cc2cnc(N)nc2N)cc(OC)c1OCCCNc1ccc(S(=O)(=O)c2ccc(N)cc2)cc1	Mycobacterium ulcerans	ATCC 35840				MBC		2 µg/mL
CO/N=C1\CN(c2nc3c(cc2F)c(=O)c(C(=O)O)cn3C2CC2)CC1CN	Staphylococcus aureus	24 strains (ofloxacin-susceptible)				MIC90		0.06 µg/mL
C[C@H](Cn1cnc2c(N)ncnc21)OCP(=O)(O)O	Semliki Forest virus				cytopathic effect	EC50		>525 µM
COc1cc(C[C@H](C)[C@H](C)Cc2ccc(O)c(O)c2)ccc1O	Candida albicans	CCC 126-2000			broth dilution	MIC50		31.25 µg/mL
Nc1nc2c(ncn2COCCO)c(=O)[nH]1	Mouse cytomegalovirus	WILD TYPE		C1271	plaque count	EC50		4 µM
COc1c(C)c2c(c(O)c1CC(=O)O)C(=O)OC2	Respiratory syncytial virus	TYPE A/LONG		HeLa	plaque count	EC50		0.42 µg/mL
CN[C@@H]1[C@H](O[C@H]2[C@H](O[C@H]3[C@H](O)[C@@H](O)[C@H](N=C(N)N)[C@@H](O)[C@@H]3N=C(N)N)O[C@@H](C)[C@]2(O)C=O)O[C@@H](CO)[C@H](O)[C@H]1O	Staphylococcus epidermidis				agar diffusion	zone	250 µg/disc	14 mm
C#CC[C@@H](C(=O)N[C@H](/C=C/C(=O)OCC)C[C@@H]1CCNC1=O)n1cccc(NC(=O)c2cc(C)on2)c1=O	Rhinovirus	Serotype 53		H1-HELA	cytopathic effect / XTT	EC50		0.036 µM
CCOc1cc(Cc2cnc(N)nc2N)cc(OCC)c1-n1cccc1	Mycobacterium ulcerans	ATCC 35840				MBC		0.5 µg/mL
CN(C)c1cc(NC(=O)CNC(C)(C)C)c(O)c2c1C[C@H]1C[C@H]3[C@H](N(C)C)C(=O)C(C(N)=O)=C(O)[C@@]3(O)C(=O)C1=C2O	Mycobacterium abscessus	X74			broth dilution	MIC		0.5 µg/mL
CC(=O)NC[C@H]1CN(c2ccc(N3CCOCC3)c(F)c2)C(=O)O1	Staphylococcus aureus	25 strains (ofloxacin-resistant)				MIC50		2 µg/mL
CCCCCCCCCCCCCCCCCCCCCCOCC(C)(COCCCCCCCCCCCCCCCCCCCCCC)CO[C@]1(C(=O)O)C[C@H](OS(=O)(=O)O)[C@@H](NC(C)=O)[C@H]([C@H](OS(=O)(=O)O)[C@@H](COS(=O)(=O)O)OS(=O)(=O)O)O1	Respiratory syncytial virus	LONG		HEP-2	ELISA	EC50		0.2 µM
C[C@@H]1CN(c2c(F)c(N)c3c(=O)c(C(=O)O)cn(C4CC4)c3c2F)C[C@H](C)N1	Streptococcus pneumoniae	1L1 (PARC mutation SER79PHE)				MIC		0.5 µg/mL
CC(=O)NC[C@H]1CN(c2ccc(N3CCOCC3)c(F)c2)C(=O)O1	Streptococcus pneumoniae	Penicillin-resistant				MIC90		1 µg/mL
Cc1onc(-c2ccccc2)c1C(=O)N[C@@H]1C(=O)N2[C@@H]1SC(C)(C)[C@@H]2C(=O)O	Staphylococcus aureus	24 strains (ofloxacin-susceptible)				MIC90		>128 µg/mL
CN(C)[C@@H]1C(=O)C(C(N)=O)=C(O)[C@@]2(O)C(=O)C3=C(O)c4c(O)c(NC(=O)CNC(F)(F)F)cc(F)c4C[C@H]3C[C@@H]12	Staphylococcus aureus	158-tet			agar diffusion	EC50		4 µg/mL
Nc1ncnc2c1ncn2C[C@H](CO)OCP(=O)(O)O	Adenovirus	WT 300 (TYPE 5)			virus yield	EC90		0.1 µg/mL
Cc1c(N2C[C@@H](F)[C@@H](C3(N)CC3)C2)c(F)c(N)c2c(=O)c(C(=O)O)cn([C@@H]3C[C@@H]3F)c12	Staphylococcus aureus	25 strains (methicillin-susceptible)				MIC90		0.03 µg/mL
O=c1cnn([C@@H]2O[C@H](CO)[C@@H](O)[C@H]2O)c(=O)[nH]1	Dengue virus	TYPE 4 (YUNH)		VERO	virus yield	EC50		<0.3 µg/mL
Nc1nc2c(ncn2COC(CO)CO)c(=O)[nH]1	Mouse cytomegalovirus	Ganciclovir-resistant		C1271	plaque count	EC50		57 µM
Nc1ccc(S(=O)(=O)Nc2ncccn2)cc1	Encephalitozoon cuniculi			MRC-5 fibroblasts	cytopathic effect	inhibition	50 µg/mL	0%
Nc1ncnc2c1ncn2CCOCP(=O)(O)O	Semliki Forest virus				cytopathic effect	EC50		>185 µM
Nc1nc(N)c2ncn(CCOCP(=O)(O)O)c2n1	Mouse cytomegalovirus	HPMPC-resistant		C1271	plaque count	EC50		0.3 µM
C[C@H]1c2cccc(O)c2C(O)=C2C(=O)[C@]3(O)C(O)=C(C(N)=O)C(=O)[C@@H](N(C)C)[C@@H]3[C@@H](O)[C@@H]21	Encephalitozoon cuniculi			MRC-5 fibroblasts	cytopathic effect	inhibition	20 µg/mL	96%
NC(=O)c1ncn([C@@H]2O[C@H](CO)[C@@H](O)[C@H]2O)n1	Measles virus			CV-1	virus yield	EC50		2 µg/mL
Nc1[nH]c(=O)ncc1F	Encephalitozoon cuniculi			MRC-5 fibroblasts	cytopathic effect	EC50		>100 µg/mL
CCCCCCCCCC(=O)N[C@H]1[C@H](Oc2c3cc4cc2Oc2ccc(cc2Cl)[C@@H](O[C@@H]2O[C@H](CO)[C@@H](O)[C@H](O)[C@H]2NC(C)=O)[C@@H]2NC(=O)[C@H](NC(=O)[C@@H]4NC(=O)[C@H]4NC(=O)[C@@H](Cc5ccc(c(Cl)c5)O3)NC(=O)[C@H](N)c3ccc(O)c(c3)Oc3cc(O)cc4c3)c3ccc(O)c(c3)-c3c(O[C@H]4O[C@H](CO)[C@@H](O)[C@H](O)[C@@H]4O)cc(O)cc3[C@H](C(=O)O)NC2=O)O[C@H](CO)[C@@H](O)[C@@H]1O	Staphylococcus aureus	24 strains (ofloxacin-susceptible)				MIC50		0.5 µg/mL
CC(C)=CCN1c2cc(Cl)cc3[nH]c(=S)n(c23)C[C@@H]1C	HIV-1		RT-K70R K103N	MT-4		EC95		1.5 µM
CC[C@H]1OC(=O)[C@H](C)[C@@H](O[C@H]2C[C@@](C)(OC)[C@@H](O)[C@H](C)O2)[C@H](C)[C@@H](O[C@@H]2O[C@H](C)C[C@H](N(C)C)[C@H]2O)[C@](C)(OC)C[C@@H](C)C(=O)[C@H](C)[C@@H](O)[C@]1(C)O	Mycobacterium massiliense	X14			broth dilution	MIC		8 µg/mL